Measured values from several laboratories, pooled; numbers as filed in NIAID ChemDB.

Shared fields: whole-cell or culture tests; species: Herpes simplex virus 1; method: plaque count; read-out: EC50

ECn is the concentration giving n% inhibition of infection, replication or growth.

Nc1nc2c(ncn2COCCO)c(=O)[nH]1 ; cell line: VERO ; value: 45 µg/mL
Nc1ncnc2c1ncn2[C@@H]1O[C@H](COP(=O)(O)O)[C@@H](O)[C@@H]1O ; strain: Clinical isolate Wilson ; cell line: MEF ; value: 16 µM
CCC(=O)C(CCCCCCOc1ccc(OCCCCCCC(C(=O)CC)C(=O)CC)cc1)C(=O)CC ; strain: Sheely ; value: >2 µg/mL
O=c1[nH]c(=O)n([C@H]2C[C@H](O)[C@@H](CO)O2)cc1C(F)(F)F ; strain: ICI ; cell line: VERO ; value: 0.1 µM
Nc1nc2c(ncn2COCCO)c(=O)[nH]1 ; value: 0.2–0.5 µg/mL
COc1ccc(-c2oc3cc(OC)cc(O)c3c(=O)c2OC)cc1 ; strain: HF ; cell line: HeLa ; value: 9.5 µg/mL
Nc1ncnc2c1ncn2[C@@H]1O[C@H](COP(=O)(O)CC(=O)O)[C@@H](O)[C@@H]1O ; strain: HFEM ; cell line: VERO ; value: >2000 µM
Nc1nc2c(ncn2CSC(CO)CO)c(=O)[nH]1 ; strain: ICI ; cell line: VERO ; value: 6.9 µM
O=C(NCc1ccc(Cl)cc1)c1c[nH]c2ccc(CCCO)cc2c1=O ; strain: DJL ; value: 18 µM
CC(C)Nc1nc2cc(Cl)c(Cl)cc2n1[C@H]1O[C@@H](CO)[C@H](O)[C@@H]1O ; cell line: HFF ; value: >53 µM
CCOP(=O)(OCC)C1=NOC(Cn2cc(F)c(=O)[nH]c2=O)C1 ; cell line: VERO ; value: >400 µM
CCCCCCCCCCCCCCCCCOC[C@H](COP1(=O)CO[C@@H](Cn2ccc(N)nc2=O)CO1)OCc1ccccc1 ; strain: F ; cell line: HFF ; value: 0.8 µM
Nc1ncnc2c1ncn2[C@H]1C[C@@]12C[C@@H]2CO ; cell line: VERO ; value: >50 µM
C=Cc1cn(CC(CO)CO)c(=O)[nH]c1=O ; strain: KOS (TK+) ; cell line: VERO ; value: >25 µg/mL
O=c1[nH]c(=O)n([C@@H]2O[C@H](CO)[C@@H](O)[C@@H]2O)cc1I ; strain: VR-3 ; cell line: CCRF-HSB-2 ; value: 23.5 µM
Nc1nc(=O)n([C@@H]2O[C@H](CO)[C@@H](O)[C@@H]2F)cc1I ; strain: MGH 10 ; cell line: VERO ; value: 0.5 µM
O=c1[nH]c(=O)n([C@H]2C[C@H](O)[C@@H](CO)O2)cc1C(F)=C(F)C(F)(F)F ; cell line: VERO ; value: >100 µg/mL
Nc1nc(=O)n([C@H]2C[C@H](O)[C@@H](CO)O2)cc1/C=C/Br ; cell line: HEP-2 ; value: 1.2 µM
Nc1ncnc2c1ncn2COCCO ; strain: ICI ; cell line: VERO ; value: 40 µM
Nc1nc(NC2CC2)c2ncn(C=C3CC3CO)c2n1 ; cell line: VERO ; value: 31 µM
Cc1cccc(C)c1N(CC(=O)Nc1ccc(-c2ncon2)cc1)C(C)C1CCS(=O)(=O)CC1 ; strain: A4-3 ; cell line: Vero Cells + HEF cells ; value: 0.067 µM
COc1nc(N)nc2c1ncn2/C=C1/C[C@H]1CO ; cell line: VERO ; value: >50 µM
Nc1ncnc2c1ncn2[C@H]1C[C@]12C[C@@H]2CO ; cell line: VERO ; value: >50 µM
OC[C@H]1O[C@@H](n2nnc3c(Cl)nccc32)[C@H](O)[C@@H]1O ; cell line: VERO ; value: >370 µM
Nc1ncnc2c1ncn2[C@H]1C[C@@]12C[C@H]2CO ; cell line: VERO ; value: >50 µM
O[C@@H]1[C@H](O)[C@H](O)CO[C@H]1n1c(Br)nc2cc(Cl)c(Cl)cc21 ; cell line: HFF ; value: >50 µM
O=c1[nH]c(=S)n([C@H]2C[C@H](O)[C@@H](CO)O2)cc1Br ; strain: TK- ; cell line: MRC-5 ; value: >311 µM
Nc1nc2c(ncn2COC(CO)CO)c(=O)[nH]1 ; cell line: VERO ; value: 0.25 µM
Nc1nc2c(ncn2CCCCO)c(=O)[nH]1 ; strain: C42 (acyclovir-resistant) ; cell line: VERO ; value: >200 µM
Nc1nc(=S)n([C@H]2C[C@H](O)[C@@H](CO)O2)cc1Cl ; strain: KOS ; cell line: MRC-5 ; value: 281 µM
CCOP(=O)(OCC)C1=NOC(Cn2cc(C)c(=O)[nH]c2=O)C1 ; cell line: VERO ; value: >400 µM
COc1cc2oc(-c3ccccc3)cc(=O)c2c(OC)c1OC ; strain: A4-3 ; cell line: VERO ; value: 9.4 µg/mL
Nc1nc2c(ncn2COC2COP(=O)(O)OC2)c(=O)[nH]1 ; strain: KOS ; cell line: MRC-5 ; value: 18 µM
O=c1[nH]c(=O)n([C@@H]2O[C@H](CO)[C@@H](O)[C@@H]2F)cc1I ; strain: VR-3 ; cell line: CCRF-HSB-2 ; value: 0.073 µM
OC[C@H]1O[C@@H](n2nnc3c(Cl)nccc32)C[C@@H]1O ; cell line: VERO ; value: >368 µM
Nc1nc2c(ncn2[C@@H]2C[C@H](CO)[C@H]2CO)c(=O)[nH]1 ; strain: KOS ; cell line: WI-38 ; value: 0.4–0.8 µM
CCc1cn([C@@H]2O[C@H](CO)[C@@H](O)[C@@H]2F)c(=O)[nH]c1=O ; strain: VR-3 ; cell line: CCRF-HSB-2 ; value: 0.02 µM
Nc1nc(=S)n([C@@H]2O[C@H](CO)[C@@H](O)[C@@H]2O)cc1Cl ; strain: KOS ; cell line: MRC-5 ; value: >341 µM
COC(=O)[C@H](C)NP(=O)(OCC1C/C1=C/n1cnc2c(N)ncnc21)Oc1ccccc1 ; cell line: VERO ; value: >1 µM
C#Cc1cn([C@H]2C[C@H](O)[C@@H](COP(=O)(O)CC(=O)O)O2)c(=O)[nH]c1=O ; strain: HFEM ; cell line: VERO ; value: >200 µM
Nc1ccn([C@@H]2O[C@H](CO)[C@@H](O)[C@H]2O)c(=S)n1 ; strain: TK- ; cell line: MRC-5 ; value: >386 µM
Nc1nc(=O)n([C@H]2C[C@H](O)[C@@H](CO)O2)cc1/C=C/Br ; strain: McIntyre ; cell line: A549 ; value: 0.61 µM
O=c1[nH]c(=O)n([C@H]2C[C@H](O)[C@@H](CO)O2)cc1C1=C(F)C(F)(F)C(F)(F)C1(F)F ; cell line: VERO ; value: >100 µg/mL
O=C(NCc1ccc(Cl)cc1)c1c[nH]c2ccc(C#CCO)cc2c1=O ; strain: 6 isolates ; value: 13 µM
Nc1nc2c(ncn2COCCO)c(=O)[nH]1 ; strain: ICI ; cell line: VERO ; value: 1.5 µM
O=C[C@H](OC(=O)c1cc(O)c(O)c(O)c1)[C@@H](OC(=O)c1cc(O)c(O)c(O)c1)[C@@H]1OC(=O)c2cc(O)c(O)c(O)c2-c2c(cc(O)c(O)c2O)C(=O)OC[C@H]1O ; strain: HF ; cell line: CV-1 ; value: 0.036 µg/mL
OC[C@H]1O[C@@H](n2nc3ccnc(Cl)c3n2)[C@H](O)[C@@H]1O ; cell line: VERO ; value: >398 µM
COCc1cn([C@@H]2C[C@H](CO)[C@@H](O)C2)c(=O)nc1NCc1ccccc1 ; strain: McIntyre ; cell line: A549 ; value: >2800 µM
Nc1nc2c(ncn2[C@H]2C[C@]23C[C@H]3CO)c(=O)[nH]1 ; cell line: VERO ; value: >50 µM
CCCCCCCCCCCCOCCCOP(=O)(O)CO[C@H](CO)Cn1ccc(N)nc1=O ; strain: HL-3 ; cell line: HFF ; value: 0.4 µM
COCc1cn([C@@H]2C[C@H](CO)[C@@H](O)C2)c(=O)nc1NO ; strain: McIntyre ; cell line: A549 ; value: 1475 µM
Nc1nc(=S)c2[nH]c(-c3cscn3)nc2[nH]1 ; cell line: VERO ; value: >100 µg/mL
Nc1nc(=S)n([C@@H]2O[C@H](CO)[C@@H](O)[C@@H]2O)cc1I ; strain: KOS ; cell line: RPMI8226 ; value: 11.4 µM
O=c1[nH]c(=O)n([C@@H]2C[C@H](O)[C@@H](CO)O2)cc1C(F)=C(Cl)Cl ; cell line: VERO ; value: >100 µg/mL
Nc1nc2c(ncn2COC(CO)CO)c(=O)[nH]1 ; strain: KOS ; cell line: WI-38 ; value: 0.04 µM
Nc1ccn(C[C@@H](CO)OCP(=O)(O)O)c(=O)n1 ; strain: F ; cell line: HFF ; value: 5.7 µM
Nc1ccn(C[C@@H](CO)OCP(=O)(O)O)c(=O)n1 ; strain: SC16-S1 (TK altered) ; cell line: MRC-5 ; value: 1.4 µM
Nc1ncnc2c1ncn2[C@H]1C[C@]12C[C@H]2CO ; cell line: VERO ; value: >50 µM
O=C(O)P(=O)(O)O ; strain: 76 ; cell line: RK-13 ; value: 31 µM
COc1ccc(-c2cc(=O)c3c(O)cc(O)cc3o2)cc1 ; strain: HF ; cell line: HeLa ; value: 3.2 µg/mL
Cc1cn([C@H]2C[C@H](O)[C@@H](CO)O2)c(=S)[nH]c1=O ; strain: KOS ; cell line: RPMI8226 ; value: 2.52 µM
Nc1ncnc2c1nnn2[C@H]1C[C@H](O)[C@@H](CO)O1 ; cell line: VERO ; value: >396 µM
O=c1[nH]c(=O)n([C@H]2C[C@H](O)[C@@H](CO)O2)cc1I ; strain: ICI ; cell line: VERO ; value: 1 µM
Nc1nccc2c1nnn2[C@H]1CC[C@@H](CO)O1 ; cell line: VERO ; value: >387 µM
Cc1cn([C@H]2S[C@@H](CO)[C@H](O)[C@H]2F)c(=O)[nH]c1=O ; strain: VR-3 ; cell line: CCRF-HSB-2 ; value: 1.56 µM
CC(C)Oc1ccccc1CNC(=O)c1ccc2cnccc2n1 ; strain: McKrae ; cell line: HFF ; value: 1.1 µM
Nc1nc2c(ncn2COCCO)c(=O)[nH]1 ; cell line: Vero cells ; value: 2.6 µg/mL
Nc1nc(=S)n([C@@H]2O[C@H](CO)[C@@H](O)[C@@H]2O)cc1Br ; strain: KOS ; cell line: MRC-5 ; value: 27.2 µM
CCCCCCCCCCCCOCCCOP1(=O)CO[C@@H](Cn2ccc(N)nc2=O)CO1 ; strain: HL-3 ; cell line: HFF ; value: >1 µM
O=C(OC[C@H]1O[C@@H](OC(=O)c2cc(O)c(O)c(O)c2)[C@H](O)[C@@H](OC(=O)c2cc(O)c(O)c(O)c2)[C@@H]1O)c1cc(O)c(O)c(O)c1 ; strain: F ; cell line: VERO ; value: 0.043 µg/mL
Nc1nc(=S)n([C@@H]2O[C@H](CO)[C@@H](O)[C@@H]2O)cc1F ; strain: KOS ; cell line: MRC-5 ; value: >361 µM
CCC(=O)Nc1nc(=O)n([C@@H]2C[C@H](CO)[C@@H](O)C2)cc1COC ; strain: McIntyre ; cell line: A549 ; value: 3.06 µM
Nc1nc2c(ncn2COCCO)c(=O)[nH]1 ; strain: F ; cell line: VERO ; value: 0.5 µM
CCCCC(=O)OC[C@H]1O[C@@H](n2cnc3c(N)ncnc32)[C@@H](O)[C@@H]1O ; strain: Clinical isolate HL-34 ; cell line: MEF ; value: 31 µM

Repeating the final 5 entries:

compound	strain	cell line	value
O=C(OC[C@H]1O[C@@H](OC(=O)c2cc(O)c(O)c(O)c2)[C@H](O)[C@@H](OC(=O)c2cc(O)c(O)c(O)c2)[C@@H]1O)c1cc(O)c(O)c(O)c1	F	VERO	0.043 µg/mL
Nc1nc(=S)n([C@@H]2O[C@H](CO)[C@@H](O)[C@@H]2O)cc1F	KOS	MRC-5	>361 µM
CCC(=O)Nc1nc(=O)n([C@@H]2C[C@H](CO)[C@@H](O)C2)cc1COC	McIntyre	A549	3.06 µM
Nc1nc2c(ncn2COCCO)c(=O)[nH]1	F	VERO	0.5 µM
CCCCC(=O)OC[C@H]1O[C@@H](n2cnc3c(N)ncnc32)[C@@H](O)[C@@H]1O	Clinical isolate HL-34	MEF	31 µM

Rows are shuffled and stem from different studies. Two numbers with a dash give a range or band.